Results published in publication PMC12299546.
Construct, isoform or probe ends are uncertain for at least one entry.

By UniProt entry, the sequences of proteins in these tests, tags left out. Where a name states a change or a piece, a line headed by the entry shows the natural chain unless it says otherwise.
UniProt P0A1R6: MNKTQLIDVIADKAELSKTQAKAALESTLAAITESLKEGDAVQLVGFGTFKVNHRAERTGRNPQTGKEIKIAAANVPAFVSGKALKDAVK

Molecular target: SeHUα2 (HUα homodimer, unacetylated + pre-incubated with SeNatB without AcCoA) (Salmonella enterica Typhimurium) (UniProt P0A1R6)
Test: EMSA
Conditions: 5-, 10-, 15-fold molar excess of HU, bound over 4, 5 and 3 times more than acetylated, 10 mM Tris-HCl pH 7.6, 15 mM NaCl, 15% glycerol, 0.1 mM EDTA, recombinant protein, label: 5' 6-FAM on one strand (hilA_R1_FAM primer), probe letters rebuilt from the primers and the genome

TAAAATGTGGCATGATAATAGTGTATTCTCTTACAGGGTGAAAAGTTATAATAACTAATACAAGTCGTTAGGATAGAATCTACTGTTTCAGTAATTCTGCTGTTAGTACTAACGGTCAGGTTGAGCTTTTATTATGAGCTTAATGTCATATTCTACGGGCTCGGGTTTATATGTTTTTAACATTTGATTATTTAGCTTATGCCTGTGCTTTAAATAACTGACATGTTGGTAATAATATTGTTATAACTAACTGTGATTATCGAATGGACGCTGCCGTATATCCTGGTGCAGAGAGAGTCAGCGCCGGGCATCTAAATATTTACATATTTAACTTGGCCTCATTGCAATAG (double strand) [hilA promoter probe]
binding result: binds
